One test has as its target T1, rat hippocampal AChE (Rattus norvegicus, UniProt P37136).
T1 sequence (P37136 32-614): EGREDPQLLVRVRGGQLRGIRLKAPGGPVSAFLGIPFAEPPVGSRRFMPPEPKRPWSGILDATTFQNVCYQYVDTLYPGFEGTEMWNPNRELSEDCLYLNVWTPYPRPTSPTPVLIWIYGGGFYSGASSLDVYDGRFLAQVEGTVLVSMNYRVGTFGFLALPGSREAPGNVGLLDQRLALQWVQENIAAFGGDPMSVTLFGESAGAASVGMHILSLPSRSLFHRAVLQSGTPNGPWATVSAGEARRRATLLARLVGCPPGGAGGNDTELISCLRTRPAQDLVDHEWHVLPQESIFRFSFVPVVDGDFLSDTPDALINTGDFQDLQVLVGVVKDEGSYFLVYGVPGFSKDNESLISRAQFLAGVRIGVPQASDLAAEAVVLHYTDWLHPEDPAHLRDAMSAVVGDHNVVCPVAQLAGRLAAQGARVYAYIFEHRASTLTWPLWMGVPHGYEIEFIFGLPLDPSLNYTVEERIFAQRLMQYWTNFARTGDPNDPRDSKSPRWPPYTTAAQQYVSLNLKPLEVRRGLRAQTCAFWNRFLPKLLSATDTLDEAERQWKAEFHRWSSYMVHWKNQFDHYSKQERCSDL
The test is described as follows: biochemical.

Amino acid sequences for entries named in this document (tags omitted).
UniProt Q8R431, whole entry: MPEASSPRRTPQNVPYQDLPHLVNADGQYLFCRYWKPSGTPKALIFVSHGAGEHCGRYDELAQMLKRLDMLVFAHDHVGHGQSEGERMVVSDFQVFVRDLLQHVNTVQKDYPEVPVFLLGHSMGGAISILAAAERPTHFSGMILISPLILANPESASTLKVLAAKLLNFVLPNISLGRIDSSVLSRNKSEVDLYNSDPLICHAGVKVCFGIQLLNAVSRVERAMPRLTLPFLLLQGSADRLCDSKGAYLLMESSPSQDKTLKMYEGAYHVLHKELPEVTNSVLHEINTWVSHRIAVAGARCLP

The next test concerns the target rat hippocampal MAGL (Rattus norvegicus, UniProt Q8R431). The test is described as follows: In vitro inhibition of hippocampal MAGL activity. The class given is biochemical.

For `CCOP(=O)(OCC)Oc1ccc([N+](=O)[O-])cc1` [paraoxon, Paraoxon], the 50% inhibitory concentration (IC50) at rat hippocampal AChE worked out at 64 nM; against rat hippocampal MAGL, 3170 nM.
`CCOP(=O)(OCC)Oc1nc(Cl)c(Cl)cc1Cl` [chlorpyrifos oxon] yielded an IC50 on rat hippocampal MAGL of 170 nM.

One may read the IC50 as the concentration that inhibits the measured activity by half. Higher therefore signals weaker potency in that assay.

Source of the values: PMC4448943 (Neurotoxicology, 2014).
